Pooled drug test results. Numbers come from NIAID ChemDB, via PubChem.

All rows: host cell toxicity; cell line: CEM; read-out: CC50

CCn: concentration that lowers growth or viability of the cells by n%. An empty or dashed field is not shown. Rows are shuffled and stem from different studies.

smiles	read by	value
Nc1ccn([C@@H]2C=C(F)[C@H](CO)O2)c(=O)n1		>100 µM
CC(=O)ONc1ccc(S(=O)(=O)N(Cc2ccccc2)C[C@@H](O)[C@H](Cc2ccccc2)NC(=O)[C@H](CC(C)C)N2C(=O)c3ccccc3C2=O)cc1	MTT	>100 µM
Cc1cn([C@@H]2C=C(F)[C@H](CO)O2)c(=O)[nH]c1=O		>100 µM
CC(C)(C)NC(=O)[C@@H]1CN(Cc2cccnc2)CCN1C[C@@H](O)C[C@@H](Cc1ccccc1)C(=O)N[C@H]1c2ccccc2C[C@H]1OC(=O)CCCCOc1ccc(C[C@H](N)C(=O)O)cc1	MTT	>100 µM
CC(C)OC(=O)c1cc(NC(=S)c2cccs2)ccc1Cl		4.9 µg/mL
CC(=O)OCC1OC(SC2C(OC(C)=O)OC(COC(C)=O)C(OC(C)=O)C2OC(C)=O)C(OC(C)=O)C(OC(C)=O)C1OC(C)=O		>100 µg/mL
COC(=O)C[C@H](CCCCNC(=O)OCc1ccccc1)NC(=O)c1ccccc1SSc1ccccc1C(=O)N[C@@H](CCCCNC(=O)OCc1ccccc1)CC(=O)OC		16 µM
Nc1ncnc2c1ncn2[C@@H]1OC[C@H](CCP(=O)(O)O)C12CC2		>100 µM
CC(C)CN(C[C@@H](O)[C@H](Cc1ccccc1)NC(=O)CN1C(=O)c2ccccc2C1=O)S(=O)(=O)c1ccc(Br)cc1	MTT	>100 µM
CON(C)C(=O)[C@H](CC(C)C)NC(=O)c1ccccc1SSc1ccccc1C(=O)N[C@@H](CC(C)C)C(=O)N(C)OC		20 µM
CCC(CC)OC(=O)c1cc(NC(=S)OC(C)C)ccc1Cl		15.99 µM
C=C(C)COC(=O)c1cc(NC(=O)c2ccoc2C)ccc1Cl		3.7 µg/mL
O=c1[nH]cnc2c1ncn2[C@@H]1C=C(F)[C@H](CO)O1		>100 µM
CC(=O)ONc1ccc(S(=O)(=O)N(CC(C)C)C[C@@H](O)[C@H](Cc2ccccc2)NC(=O)CCCN2C(=O)c3ccccc3C2=O)cc1	MTT	>100 µM
CC(C)(C)NC(=O)[C@@H]1CN(Cc2cccnc2)CCN1C[C@H](C[C@@H](Cc1ccccc1)C(=O)N[C@H]1c2ccccc2C[C@H]1O)OC(=O)COc1ccc(C[C@H](N)C(=O)O)cc1	MTT	>100 µM
Nc1ncnc2c1ncn2[C@@H]1C[C@H](O)[C@@H](O)[C@H]1O		27 µg/mL
CC(=O)C(CCCCCCCCCn1c(=O)c(C)cn([C@@H]2O[C@H](CO[Si](C)(C)C(C)(C)C)C3(OS(=O)(=O)C=C3N)[C@H]2O[Si](C)(C)C(C)(C)C)c1=O)C(C)=O		153 µM
CC(C)OC(=S)Nc1ccc(Cl)c(C(=O)OC2(C)COC2)c1		20.65 µM
O=P(O)(O)OP(=O)(O)OP(=O)(O)O	MTT	>100 µg/mL
CCCC(=O)Nc1nc(N)nc2c1ncn2[C@H]1CO[C@@H](COP(=O)(N[C@@H](C)C(=O)OCC)Oc2ccccc2)O1		>100 µM
CCOC(=O)c1cc(NC(=S)OC(C)C)ccc1SC		76.57 µM
CC(=O)/C=C(\C)OCCCCCCn1c(=O)c(C)cn([C@@H]2O[C@H](CO[Si](C)(C)C(C)(C)C)C3(OS(=O)(=O)C=C3N)[C@H]2O[Si](C)(C)C(C)(C)C)c1=O		15 µM
CSCCOC(=S)Nc1ccc(Cl)c(C(=O)OC(C)C)c1		241 µM
CC(C)=CCOc1cc(NC(=O)c2ccoc2C)ccc1Cl		>100 µg/mL
Cc1cc(S(=O)(=O)N2CCNNC2=O)c(S)cc1Cl.O		94.2 µM
Nc1nc2c(ncn2[C@@H]2OC[C@H](CCP(=O)(O)O)C23CC3)c(=O)[nH]1		>100 µM
CCC(NC(=O)c1ccccc1SSc1ccccc1C(=O)NC(CC)C(=O)O)C(=O)O		>100 µM
CCNC(=O)c1ccccc1SSc1ccccc1C(=O)NCC		5.1 µM
Cc1occc1C(=S)Nc1ccc(Cl)c(/C=N/OC(C)(C)C)c1		5.8 µg/mL
CC(C)C[C@H](NC(=O)c1ccccc1SSc1ccccc1C(=O)N[C@@H](CC(C)C)C(N)=O)C(N)=O		21 µM
COc1ccc2c(c1)OCC1c3cc(O)c(OCc4ccc5ccccc5c4)cc3OC21		34.2 µM
CC(C)CN(C[C@@H](O)[C@H](Cc1ccccc1)NC(=O)CCN1C(=O)c2ccccc2C1=O)S(=O)(=O)c1ccc(Br)cc1	MTT	>100 µM
C=C(Cl)COc1cc(NC(=S)c2ccsc2C)ccc1C#N		3.3 µg/mL
CCCCCCCCCCCCCC(=O)Nc1nc(N)nc2c1ncn2[C@H]1CO[C@@H](COP(=O)(N[C@@H](C)C(=O)OCC)Oc2ccccc2)O1		7.5 µM
CCCCCCCCCCCCCCCC(=O)OCC(COC(=O)CCCCCCCCCCCCCCC)OC(=O)CCC(=O)O[C@@H]1Cc2ccccc2[C@@H]1NC(=O)[C@H](Cc1ccccc1)C[C@H](O)CN1CCN(Cc2cccnc2)C[C@H]1C(=O)NC(C)(C)C	MTT	>100 µM
O=C(Nc1ccc(Cl)cc1)c1cc(S(=O)(=O)N2CCNNC2=O)c(S)cc1Cl		>200 µM
O=C(Nc1cccc(O)c1)c1ccccc1SSc1ccccc1C(=O)Nc1cccc(O)c1		22 µM
CO/N=C/c1cc(NC(=S)c2ccoc2C)ccc1OC		>100 µg/mL
COc1ccc2c(c1)OCC1c3ccc(OCc4ccccc4)cc3OC21		200 µM
CC(C)OC(=O)c1cc(NC(=S)c2ccco2)ccc1Cl		7.4 µg/mL
Cc1cnc2n1S(=O)(=O)c1cc(C(=O)NCC(C)C)c(Cl)cc1S2		>200 µM
CC(C)OC(=O)c1cc(NC(=S)c2ccccc2N)ccc1Cl		6.7 µg/mL
O=C(O)C[C@H](CCCCNC(=O)OCc1ccccc1)NC(=O)c1ccccc1SSc1ccccc1C(=O)N[C@@H](CCCCNC(=O)OCc1ccccc1)CC(=O)O		97 µM
CCC(C)NC(=O)c1ccccc1SSc1ccccc1C(=O)NC(C)CC		15 µM
CCCCCCCCCC(=O)Nc1nc(N)nc2c1ncn2[C@H]1CO[C@@H](COP(=O)(N[C@@H](C)C(=O)OCC)Oc2ccccc2)O1		13 µM
OC[C@H]1O[C@H](c2cc(Cl)c(F)cc2F)C[C@@H]1O		>250 µM
CC(C)C(N)C(=O)O[C@@H](C[C@@H](Cc1ccccc1)C(=O)N[C@H]1c2ccccc2C[C@H]1O)CN1CCN(Cc2cccnc2)C[C@H]1C(=O)NC(C)(C)C	MTT	>100 µM
CC(=O)ONc1ccc(S(=O)(=O)N(Cc2ccccc2)C[C@@H](O)[C@H](Cc2ccccc2)NC(=O)CN2C(=O)c3ccccc3C2=O)cc1	MTT	>100 µM
COc1ccc(NC(=S)OC(C)C)cc1CC(=O)OC(C)C		23.66 µM
Cc1[nH]c2ccc3c(c2c(=O)c1O[C@@H]1O[C@H](CO)[C@@H](O)[C@H](O)[C@H]1O)[C@@H]1CC[C@H](O)[C@@]3(c2ccccc2)O1	MTT	>100 µM
O=C(OC1CCCCC1)c1cc(NC(=S)c2ccccc2F)ccc1Cl		19 µg/mL
CCC(C)OC(=S)Nc1ccc(Cl)c(C(=O)OC(C)(C)C)c1		23.26 µM
Cc1sccc1C(=S)Nc1ccc(Cl)c(C(=O)OC(C(C)C)C(C)C)c1		6 µg/mL
CC[C@@H](C)OC(=S)Nc1ccc(Cl)c(C(=O)OC(C)C)c1		30.32 µM
C=CC(C)(C)OC(=O)c1cc(NC(=S)c2ccoc2C)ccc1Cl		25 µg/mL
CCCCCCCC(=O)Nc1nc(N)nc2c1ncn2[C@H]1CO[C@@H](COP(=O)(N[C@@H](C)C(=O)OCC)Oc2ccccc2)O1		16 µM
CC(=O)ONc1ccc(S(=O)(=O)N(CC(C)C)C[C@@H](O)[C@H](Cc2ccccc2)NC(=O)CCN2C(=O)c3ccccc3C2=O)cc1	MTT	>100 µM
Cc1ccccc1C(=O)Nc1ccc(Cl)c(C(=O)OC2CCCCC2)c1		5.2 µg/mL
Nc1ccn([C@H]2C=C(F)[C@@H](CO)O2)c(=O)n1		>100 µM
Cc1sccc1C(=S)Nc1ccc(Cl)c(OCC(=O)OC(C)(C)C)c1		2.1 µg/mL
CC(=O)ONc1ccc(S(=O)(=O)N(Cc2ccccc2)C[C@@H](O)[C@H](Cc2ccccc2)NC(=O)CCN2C(=O)c3ccccc3C2=O)cc1	MTT	>100 µM
C/C=C/CSc1cc(NC(=S)c2ccsc2C)ccc1Cl		5.1 µg/mL
CC(=O)/C=C(/C)OCCCn1c(=O)c(C)cn([C@@H]2O[C@H](CO[Si](C)(C)C(C)(C)C)C3(OS(=O)(=O)C=C3N)[C@H]2O[Si](C)(C)C(C)(C)C)c1=O		≥130 µM
CC(C)OC(=O)c1cc(NC(=S)N(C)C(C)C)ccc1Cl		>303.2 µM
C=CCOc1cc(NC(=S)c2sccc2C)ccc1Cl		5.3 µg/mL
CC(C)OC(=S)Nc1ccc(Cl)c(C(=O)OCc2ccccc2)c1		>275 µM
CCCCCCCC/C=C\CCCCCCCC(=O)Nc1nc(N)nc2c1ncn2[C@H]1CO[C@@H](COP(=O)(N[C@@H](C)C(=O)OCC)Oc2ccccc2)O1		10 µM
CC(C)OC(=S)Nc1ccc(Cl)c(C(=O)OCC[Si](C)(C)C)c1		50.81 µM
Cc1cn([C@@H]2O[C@H](CO[Si](C)(C)C(C)(C)C)C3(OS(=O)(=O)C=C3N)[C@H]2O[Si](C)(C)C(C)(C)C)c(=O)n(CCCO/C(=C\C(=O)c2ccccc2)c2ccccc2)c1=O		31 µM
CCOC(=O)C(C)Oc1cc(NC(=S)OC(C)C)ccc1Cl		205 µM
Cc1cnc2n1S(=O)(=O)c1cc(C(=O)O)c(Cl)cc1S2		>200 µM
CC1=C(C(=O)Nc2ccc(Cl)c(C(=O)OC(C(C)C)C(C)C)c2)SCCO1		5.8 µg/mL
C=CCSc1cc(NC(=S)OC(C)C)ccc1Cl		66.92 µM
Cc1cccc(C)c1C(=O)N1CCC(C)(N2CCC(Nc3ccc(Br)cc3)CC2)CC1		67 µM
CC(C)OC(=O)c1cc(NC(=O)c2ccccc2)ccc1Cl		6.2 µg/mL
Nc1nc2c(ncn2[C@H]2C=C(F)[C@@H](CO)O2)c(=O)[nH]1		>100 µM

For reference, 5 entries again:

smiles	read by	value
CC(C)OC(=O)c1cc(NC(=S)c2ccco2)ccc1Cl		7.4 µg/mL
CC(C)CN(C[C@@H](O)[C@H](Cc1ccccc1)NC(=O)CN1C(=O)c2ccccc2C1=O)S(=O)(=O)c1ccc(Br)cc1	MTT	>100 µM
CON(C)C(=O)[C@H](CC(C)C)NC(=O)c1ccccc1SSc1ccccc1C(=O)N[C@@H](CC(C)C)C(=O)N(C)OC		20 µM
CC(C)CN(C[C@@H](O)[C@H](Cc1ccccc1)NC(=O)CCN1C(=O)c2ccccc2C1=O)S(=O)(=O)c1ccc(Br)cc1	MTT	>100 µM
Nc1ncnc2c1ncn2[C@@H]1C[C@H](O)[C@@H](O)[C@H]1O		27 µg/mL